Source: patent US20210115061A1, “Small-Molecule HIV-1 Capsid Protein Inhibitors and Methods Using Same” (DREXEL UNIVERSITY, priority 2018, published 2021)

The compounds below were run on HIV-1. Settings: CC50/IC50; Table 2.
Experimental: The potency of compounds of Formula I was evaluated via single round and multicycle HIV-1 replication assays. The single round assay is used as the first level of potency testing. […] The multicycle HIV-1 replication assay uses primary isolates and primary human peripheral blood mononuclear cells (PBMCs). Toxicity is evaluated simultaneously with the cells utilized in each assay to allow determination of the therapeutic index (TI=CC50/IC50) of each compound. HIV-1 replication assays are performed in primary PBMCs such as described in Kortager, et al., 2012, J Virol. 86(16):8472-8481, Zentner, et al., 2013, ChemMedChem. 8(3):426-432 and Zentner, et al., 2013, Bioorg Med Chem Lett. 2013; 23(4): 1132-1135.

**Q.** For `CN(C(=O)C(Cc1ccccc1)NC(=O)Cc1n[nH]c2c(N)cccc12)c1ccc2[nH]ncc2c1` (stereo not shown) [Compound C12], which Therapeutic index is on record?
**A.** 606

**Q.** Which Therapeutic index does the source give for `Cc1[nH]c2ccccc2c1CC(=O)N[C@@H](Cc1ccccc1)C(=O)N(C)c1ccccc1` [PF-74, reference compound] here?
**A.** 768

**Q.** How did the Therapeutic index turn out when `CN(C(=O)C(Cc1ccccc1)NC(=O)Cc1n[nH]c2c(N)cccc12)c1ccccc1` (stereo not shown) [Compound C4] was run?
**A.** 5515

**Q.** How did the Therapeutic index turn out when `Cc1[nH]c2ccccc2c1CC(=O)NC(Cc1ccccc1)C(=O)N(C)c1ccc2[nH]ncc2c1` (stereo not shown) [Compound C11] was run?
**A.** 2115
